A mixed list of measured activities; the numbers were collected in NIAID ChemDB.

Common to all: toxicity to cultured cells; cells: TZM-bl; read by: MTT; endpoint: CC50

Conditions beyond the fields shown may differ between rows. CCn: concentration that lowers growth or viability of the cells by n%.

SMILES	value
Cc1ccc(-c2ccc3c(c2)C=C(C(=O)Nc2ccc(C[N+](C)(C)C4CCOCC4)cc2)CCC3)cc1	134 µM
CC1=CC2=C(C(C)C)C(O)C(=O)/C(=C\NC(C)(C)C(=O)O)C2C(O)=C1c1c(C)cc2c(C(C)C)c(O)c(O)c(C=NC(C)(C)C(=O)O)c2c1O.[Na+].[Na+]	65.1 µM
CCOC(=O)C(O)(c1c[nH]c2ccccc12)C(F)(F)F	285 µM
CCC(I)C1(c2ccc(F)cc2)OC(=O)c2ccccc21	202 µM
CCOC(=O)C(O)(c1c[nH]c2ccc(C=O)cc12)C(F)(F)F	135 µM
COc1cccc(-c2nnc(-c3ccc4cccc(OC)c4n3)o2)c1	695 µM
Cc1ccc(-c2ccc3c(c2)C=C(C(=O)Nc2ccc(C[N+](C)(C)C4CCOCC4)cc2)CCC3)cc1	134 µM
O=C1CSC(c2c(Cl)ncnc2Cl)N1c1ncccn1	453 µg/mL
CCOC(=O)C(O)(c1c[nH]c2ccc(F)cc12)C(F)(F)F	102 µM
COc1cccc2ccc(-c3nnc(-c4ccncc4)o3)nc12	208 µM
Clc1cc(/C=C/c2ccc3ccccc3c2)nc2ccccc12	8.23 µM
Cc1cn([C@H]2C[C@H](N=[N+]=[N-])[C@@H](CO)O2)c(=O)[nH]c1=O	35.64 µg/mL
O=C1CSC(c2c(Cl)cccc2Cl)N1n1cnnc1	171 µg/mL
COC(=O)C(N)(c1c[nH]c2c(C)cccc12)C(F)(F)F	34.9 µM
Cc1ccnc2c1NC(=O)c1cccnc1N2C1CC1	5.6 µM
CC1=CC2=C(C(C)C)C(O)C(=O)/C(=C\N[C@@H](C(=O)O)C(C)C)C2C(O)=C1c1c(C)cc2c(C(C)C)c(O)c(O)c(C=N[C@H](C(=O)O)C(C)C)c2c1O.[Na+].[Na+]	49.29 µM
Cc1[nH]c2ccccc2c1CC(=O)NC(Cc1ccccc1)C(=O)N(C)c1ccccc1	47 µM
O=C1OC(CCl)(c2ccc(F)cc2)c2ccccc21	290 µM
O=C1CSC(c2c(Cl)ncnc2Cl)N1n1cnnc1	84.54 µg/mL
CN(C)CCCn1c(=O)c2cc(Br)c3c(=O)n(CCCN(C)C)c(=O)c4c5[nH]c6ccccc6[nH]c5c(c1=O)c2c34	0.3432 µM
COC(=O)C(O)(c1c[nH]c2ccc(Cl)cc12)C(F)(F)F	168 µM
CCOC(=O)C(N)(C1=CNC2C=C(C)C=CC12)C(F)(F)F	69.9 µM
Cc1coc(N2C(=O)CSC2c2c(Cl)ncnc2Cl)n1	187 µg/mL
COc1cccc(/C=C/c2cc(Cl)c3ccccc3n2)c1OC	55.56 µM
C(=Nc1ccccc1)c1cc2ccccc2nc1Nc1ccccc1	77.95 µM
CC[C@@H](C)[C@@H](N/C=C1\C(=O)C(O)C(C(C)C)=C2C=C(C)C(c3c(C)cc4c(C(C)C)c(O)c(O)c(C=N[C@H](C(=O)O)[C@@H](C)CC)c4c3O)=C(O)C21)C(=O)O.[Na+].[Na+]	62.34 µM
CCOC(=O)C(N)(C1=CNC2C=C(Br)C=CC12)C(F)(F)F	49.3 µM
CCOC(=O)C(O)(c1cn(C)c2ccccc12)C(F)(F)F	232 µM
Cc1cn([C@H]2C[C@H](N=[N+]=[N-])[C@@H](CO)O2)c(=O)[nH]c1=O	2890 µM
Cc1ccc(-n2ncc3c(=O)[nH]c(C)cc32)cc1	383 µM
CCOC(=O)C(N)(C1=CNC2C=CC=C(C)C12)C(F)(F)F	56.6 µM
CC[C@H](C)[C@H](N)C(=O)O.[Na+]	62.34 µM
COC(=O)C(N)(c1c[nH]c2ccc(F)cc12)C(F)(F)F	103 µM
Cc1cn([C@H]2C[C@H](N=[N+]=[N-])[C@@H](CO)O2)c(=O)[nH]c1=O	872 µM
CCOC(=O)C(N)(C1=CNC2C=C(F)C=CC12)C(F)(F)F	>131 µM
COc1cc(OC)nc(N2C(=O)CSC2c2c(Cl)ncnc2Cl)n1	82.55 µM

The first 5 rows once more:

SMILES | value
Cc1ccc(-c2ccc3c(c2)C=C(C(=O)Nc2ccc(C[N+](C)(C)C4CCOCC4)cc2)CCC3)cc1 | 134 µM
CC1=CC2=C(C(C)C)C(O)C(=O)/C(=C\NC(C)(C)C(=O)O)C2C(O)=C1c1c(C)cc2c(C(C)C)c(O)c(O)c(C=NC(C)(C)C(=O)O)c2c1O.[Na+].[Na+] | 65.1 µM
CCOC(=O)C(O)(c1c[nH]c2ccccc12)C(F)(F)F | 285 µM
CCC(I)C1(c2ccc(F)cc2)OC(=O)c2ccccc21 | 202 µM
CCOC(=O)C(O)(c1c[nH]c2ccc(C=O)cc12)C(F)(F)F | 135 µM